Measured values: patent publication US10889616B2 (priority 2014, dated 2021)

Experiment: general procedure: solution-phase peptide synthesis; HBTU/DIEA; isobutyl chloroformate/DIPEA
Details: conjugation step

In the case of Boc-TAM479, the conjugation yield is reported as 76%.
